# Assay results from article PMC11118514, “Eminent Antimicrobial Peptide Resistance in Zymomonas mobilis: A Novel Advantage of Intrinsically Uncoupled Energetics” (Antibiotics, 2024).
# Where no end group is shown, it is not given here.
# Assay: Langmuir-Blodgett compression isotherms of model membrane with peptides
# Parameters: species or system Zymomonas mobilis
# Details: Z. mobilis phospholipid model membrane + peptide, 30 ± 1 °C
sequence,measurement,setting,value
KKIAKKFWKKFWKFWKIFKK [R10],"Mma (limiting area per molecule, Aπ→0)","extrapolated from linear part of π-A isotherm (25–40 mN/m), membranes alone 70.6",81.3 Å/molecule
same,π Collapse,membranes alone 46.4,44.2 mN/m
